Consider 2 compounds from patent US20230365647A1, “MANNOSE RECEPTOR-DERIVED PEPTIDES FOR NEUTRALIZING PORE-FORMING TOXINS FOR THERAPEUTIC USES” (priority 2020, published 2023).

Test [1] addresses T1, SLO (Streptococcus pyogenes serotype M1, UniProt P0C0I3, E324D/N47S/T59I/T66M). Particulars: 0.5 μg/ml SLO; 100 μM peptide; 18 h.
Test [2] deals with T1, SLO. The following applies: 100 μM peptide; 1 μg/ml purified SLO.
The target in test [3] is T1, SLO. The following applies: peptides immobilized on plates; increasing doses of purified SLO.

Turning to `C[C@H](NC(=O)[C@H](Cc1c[nH]c2ccccc12)NC(=O)[C@H](CC(N)=O)NC(=O)[C@H](CCC(=O)O)NC(=O)[C@@H](N)Cc1ccc(O)cc1)C(=O)N[C@@H](Cc1ccc(O)cc1)C(=O)NCC(=O)N[C@@H](CCC(=O)O)C(=O)N1CCC[C@H]1C(=O)N[C@@H](CC(N)=O)C(=O)N[C@@H](CC(N)=O)C(=O)N[C@@H](Cc1ccc(O)cc1)C(=O)N[C@@H](CCC(N)=O)C(=O)O`, the “cell death of macrophages induced by SLO (LDH release)” value on SLO [1] was “significantly reduced cell death”. Further, the “inhibition of SLO-induced hemolysis” value on SLO [2] was found to be 60%. Besides, the “binding to SLO (ELISA)” value at SLO [3] is “bound dose-dependently”.

In the case of LVGNIEQNEHSVI, at SLO [1], the “cell death of macrophages induced by SLO (LDH release)” value was “no significant effect”.
